Measured values from several laboratories, pooled; numbers as filed in NIAID ChemDB.

Common to all: tests in culture; agent: Hepatitis C virus; measure: EC50

ECn is the concentration giving n% inhibition of infection, replication or growth. Two numbers with a dash give a range or band. An empty or dashed field is not shown. Neighbouring rows are from separate reports.

| structure | strain | changes | cells | method | result |
|---|---|---|---|---|---|
| CC1CCC(C(=O)N(c2cc(-c3ccc(NC(=O)c4ccc(F)cc4)nc3)sc2C(=O)O)C(C)C)CC1 | 1a |  |  | replicon | <0.5 µM |
| CNC(=O)c1c(-c2ccc(F)cc2)oc2cc(N(CS(C)(=O)=O)C(=O)NC)c(OC)cc12 |  |  | Huh7 | replicon | <1 µM |
| CC(=O)N1c2cccc(O)c2NC2=C(C(=O)CC(C)(C)C2)C1c1ccc(OCc2cccc(N)c2)cc1Cl | 1b |  |  | luciferase / reporter gene / replicon | 10.4 µM |
| COC(=O)C1=Cc2cc(Cl)ccc2-c2c(C3CCCCC3)c3ccc(C(=O)NS(=O)(=O)N(C)C)cc3n2C1 |  |  | Huh7 | replicon | 0.01–1 µM |
| Nc1cc(Cn2c(C(=O)O)c(-c3ccc[nH]c3=O)c3c4scnc4ccc32)ccn1 |  |  |  | replicon | >1.5 µM |
| CNC(=O)c1c(-c2ccc(F)cc2)oc2cc(C(C)NC)c(OC)cc12 |  |  | Huh7 | replicon | >30 µM |
| CC1(C)CC(=O)C2=C(C1)Nc1c(O)cccc1N(C(=O)c1ccc(=O)[nH]n1)C2c1ccc(OCc2ccccc2)cc1F | 1b |  |  | luciferase / reporter gene / replicon | 2.98 µM |
| NC(=S)Nc1cccc(OCCCCCOc2ccc3ccccc3c2)c1 |  |  | Ava5-EG(delta4AB)SEAP | reporter gene / fluorescence | 0.001–1 µM |
| NS(=O)(=O)c1ccc(CNc2nc(NCC(F)(F)F)c3nc(-c4ccc(Cl)cc4)ccc3n2)cc1 |  |  |  | replicon | <0.1 µM |
| CNC(=O)c1c(-c2ccc(F)cc2)oc2cc(N(C)S(C)(=O)=O)c(OCc3ccc(C(=O)O)cc3)cc12 |  |  | Huh7 | replicon | <10 µM |
| CN1CCN(C(=O)C2Cc3ccccc3-c3c(C4CCCCC4)c4ccc(C(=O)NC5(CNc6ccc(/C=C/C(=O)O)cc6)CCCC5)cc4n3C2)CC1 |  |  | Huh7 | replicon | 0.01–1 µM |
| CC(C)Nc1cnn(-c2ccc3nc(NCc4ccc(S(N)(=O)=O)cc4)nc(NCC(F)(F)F)c3n2)c1 |  |  |  | replicon | <0.1 µM |
| COC(=O)c1ccc2c(C3CCCCC3)c3n(c2c1)C[C@@H](O)[C@@H](O)c1ccccc1-3 |  |  | Huh7 | replicon | 1–10 µM |
| COC(=O)N[C@H](C(=O)N1CCCC1c1ncc(-c2ccc(-c3ccc(-c4cnc([C@@H]5CC(C)CN5C(=O)[C@@H](NC(=O)CO)C(C)C)[nH]4)cc3)cc2)[nH]1)C(C)C | 1b | L28V | ET | luciferase | 0.0000079 µM |
| COCCNc1nc(NC(C)C)c2nc(-c3ccc(F)cc3)ccc2n1 |  |  |  | replicon | 0.25–2 µM |
| C=C[C@@H]1C[C@]1(NC(=O)[C@@H]1C[C@@H](Oc2cc(-c3ccccc3)nc3cc(OC)ccc23)CN1C(=O)[C@@H](NC(=O)OC(C)(C)C)C(C)(C)C)C(=O)NS(=O)(=O)c1ccccc1C(F)(F)F | 1b |  | Huh7 | replicon | <0.5 µM |
| CSc1ncc(Br)c(C(=O)N2c3cccc(O)c3NC3=C(C(=O)CC(C)(C)C3)C2c2ccc(OCc3ccccc3)cc2F)n1 | 1b |  |  | luciferase / reporter gene / replicon | 1.97 µM |
| O=C(O)c1ccc2c(C3CCCCC3)c3n(c2c1)CC(C(=O)N1CCOCC1)Cc1ccncc1-3 |  |  | Huh7 | replicon | 0.01–1 µM |
| CS(=O)(=O)CCNc1nc(N)nc2ccc(-c3cccc(NS(C)(=O)=O)c3)nc12 |  |  | Huh7 | replicon | 0.3–1 µM |
| O=C(Nc1ccc(-c2cc(N(CC3CC3)C(=O)C3CCC(C(F)(F)F)CC3)c(C(=O)O)s2)cc1)c1cscn1 | 1b |  |  | replicon | <0.5 µM |
| C=C[C@@H]1C[C@]1(NC(=O)[C@@H]1C[C@@H](Oc2cc(-c3ccccc3)nc3cc(OC)ccc23)CN1C(=O)[C@@H](NC(=O)OC(C)(C)C)C(C)(C)C)C(=O)NS(=O)(=O)CCCC | 1b |  | Huh7 | replicon | <0.5 µM |
| CNC(=O)c1c(-c2ccc(F)cc2)oc2cc(-c3c(C)noc3C)c(OCc3cc(C)on3)cc12 |  |  | Huh7 | replicon | <1 µM |
| C=C[C@@H]1C[C@]1(NC(=O)[C@@H]1C[C@@H](Oc2cc(-c3ccccc3)nc3cc(OC)ccc23)CN1C(=O)[C@@H](NC(=O)OC(C)(C)C)C(C)(C)C)C(=O)NS(=O)(=O)C(C)C | 1b |  | Huh7 | replicon | <0.5 µM |
| CC1(C)CC(=O)C2=C(C1)Nc1c(O)cccc1N(C(=O)CCC(=O)O)C2c1ccc(OCc2ccccc2)cc1Cl | 1b |  |  | luciferase / reporter gene / replicon | 25.59 µM |
| CNC(=O)c1c(-c2ccc(F)cc2)oc2cc(NS(C)(=O)=O)c(O)cc12 |  |  | Huh7 | replicon | <30 µM |
| CS(=O)(=O)NC(=O)c1c(-c2ccc[nH]c2=O)c2c3occc3c(F)cc2n1Cc1cc(C(N)=O)cnc1F |  |  |  | replicon | <0.5 µM |
| CC1CCC(C(=O)N(CC2CC2)c2cc(-c3ccc(NC(=O)c4cnccn4)cc3)sc2C(=O)O)CC1 | 1b |  |  | replicon | <0.5 µM |
| S=C1NCCN1C(=S)Nc1cccc(OCc2ccccc2)c1 |  |  | Ava5-EG(delta4AB)SEAP | reporter gene / fluorescence | 0.001–1 µM |
| Nc1cc(Cn2c(C(=O)O)c(-c3ccc[nH]c3=O)c3c4ccccc4ccc32)ccn1 |  |  |  | replicon | 1–10 µM |
| O=C(O)/C=C/c1ccc2nc(C3(NC(=O)c4ccc5c(C6CCCCC6)c6c7ccccc7ncn6c5c4)CCCC3)[nH]c2c1 |  |  | Huh7 | replicon | 0.01–1 µM |
| CCOc1nc(N)nc2ccc(-c3ccc(NC(=O)[C@H](C)N)c(F)c3)nc12 |  |  | Huh7 | replicon | <0.3 µM |
| CN1CCN(c2cc3c(cc2F)c(=O)c(-c2noc(CC4CCCC4)n2)cn3CC2CCCCC2)CC1 | 1b |  |  | replicon | <0.5 µM |
| C=CC1C[C@]1(NC(=O)[C@@H]1C[C@@H](Oc2cc(-c3ccccc3)nc3cc(OC)ccc23)CN1C(=O)[C@@H](NC(=O)NC(C)(C)C)C(C)(C)C)C(=O)O | 1b |  | Huh7 | replicon | <0.5 µM |
| C=CCOc1cc2c(C(=O)NC)c(-c3ccc(F)cc3)oc2cc1NCC |  |  | Huh7 | replicon | <1 µM |
| O=C(O)c1ccc2c(C3CCCCC3)c3n(c2c1)CC(C(=O)N1CCC(N2CCCC2)CC1)Cc1ccccc1-3 |  |  | Huh7 | replicon | 0.01–1 µM |
| Nc1noc2ccc(Cn3c(C(=O)O)c(-c4ccc[nH]c4=O)c4c5occc5c(F)cc43)cc12 |  |  |  | replicon | <0.5 µM |
| NC(=O)CCNc1nc(NCC(F)(F)F)c2nc(-c3ccc(F)cc3)ccc2n1 |  |  |  | replicon | <0.1 µM |
| O=C(O)c1c(-c2ccc[nH]c2=O)c2c3occc3c(F)cc2n1Cc1cc(F)ccc1F |  |  |  | replicon | <0.5 µM |
| CC1(C)CC(=O)C2=C(C1)Nc1c(O)cccc1N(C(=O)CCS(=O)(=O)c1ccccc1)C2c1ccc(OCc2ccccc2)cc1F | 1b |  |  | luciferase / reporter gene / replicon | 1.49 µM |
| COc1c(-c2ccc3cc(NS(C)(=O)=O)ccc3c2)cc(-n2ccc(=O)[nH]c2=O)cc1C(C)(C)C | genotype 1b Con1 | C316N | Huh7 | luciferase | 0.0032 µM |
| CN(C)c1cc2c(cc1F)c(=O)c(-c1noc(Cc3ccccc3)n1)cn2Cc1ccc(C(F)(F)F)cc1 | 1b |  |  | replicon | >10 µM |
| O=C(NS(=O)(=O)Cc1ccccc1)c1ccc2c(C3CCCCC3)c3n(c2c1)CC=Cc1ncccc1-3 |  |  | Huh7 | replicon | 1–10 µM |
| CC1CCC(C(=O)N(c2cc(-c3ccc(NC(=O)c4cscn4)cc3)sc2C(=O)O)C(C)C)CC1 | 1a |  |  | replicon | <0.5 µM |
| CN1CCN(c2cc3c(cc2F)c(=O)c(-c2noc(Cc4ccc(F)cc4)n2)cn3Cc2cccc(C(F)(F)F)c2)CC1 | 1b |  |  | replicon | <0.5 µM |
| CCOc1nc(NCc2ccc(F)cc2)nc2ccc(-c3cccc(NS(C)(=O)=O)c3)nc12 |  |  |  | replicon | <0.1 µM |
| CC1CCC(C(=O)N(c2cc(-c3ccc(NC(=O)c4cscn4)c(C(F)(F)F)c3)sc2C(=O)O)C(C)C)CC1 | 1b |  |  | replicon | <0.5 µM |
| CS(=O)(=O)CCNc1nc(NCc2ccc(S(N)(=O)=O)cc2)nc2ccc(-c3ccc(NC(=O)C4(O)CC4)cc3)nc12 |  |  |  | replicon | 0.1–0.25 µM |
| NC(=S)Nc1cccc(OCCCCCOc2ccccc2-c2ccc(C(F)(F)F)cc2)c1 |  |  | Ava5-EG(delta4AB)SEAP | reporter gene / fluorescence | 0.001–1 µM |
| O=C(O)c1ccc2c(C3CCCCC3)c3n(c2c1)C[C@@H](O)Cc1ncccc1-3 |  |  | Huh7 | replicon | 1–10 µM |
| CN1CCN(c2cc3c(cc2F)c(=O)c(-c2noc(Cc4ccc(F)cc4)n2)cn3Cc2ccc(F)cc2F)CC1 | 1b |  |  | replicon | <10 µM |
| C=C[C@@H]1C[C@]1(NC(=O)[C@@H]1C[C@@H](Oc2cc(-c3ccccc3)nc3cc(OC)ccc23)CN1C(=O)[C@@H](NS(=O)(=O)c1ccc(F)cc1)C(C)(C)C)C(=O)NS(=O)(=O)C1CC1 | 1b |  | Huh7 | replicon | <0.5 µM |
| NC(=S)Nc1cccc(OCCCCCOc2ccc(Oc3ccccc3)cc2)c1 |  |  | Ava5-EG(delta4AB)SEAP | reporter gene / fluorescence | 0.001–1 µM |
| CN1CCN(c2cc3c(cc2F)c(=O)c(-c2noc(Cc4ccc(F)cc4)n2)cn3C2(c3ccc(C(F)(F)F)cc3)CC2)CC1 | 1b |  |  | replicon | <0.5 µM |
| S=C1NCCN1C(=S)Nc1cccc(OCCCCCc2ccccc2)c1 |  |  | Ava5-EG(delta4AB)SEAP | reporter gene / fluorescence | 0.001–1 µM |
| O=C(O)c1c(-c2ccc[nH]c2=O)c2c3occc3ccc2n1Cc1ccc(F)cc1F |  |  |  | replicon | <0.5 µM |
| CCOc1nc(N)nc2ccc(-c3ccc(C(=O)NCC(C)C)cc3)nc12 |  |  | Huh7 | replicon | 0.3–1 µM |
| CNC(=O)c1c(-c2ccc(F)cc2)oc2cc(N(C)S(C)(=O)=O)c(OC(C)C)cc12 |  |  | Huh7 | replicon | <1 µM |
| C=C[C@@H]1C[C@]1(NC(=O)[C@@H]1C[C@@H](Oc2cc(-c3ccccc3)nc3cc(OC)ccc23)CN1C(=O)[C@@H](NS(=O)(=O)C1CC1)C(C)(C)C)C(=O)NS(=O)(=O)C1CC1 | 1b |  | Huh7 | replicon | <0.5 µM |
| CN1CCN(c2cc3c(cc2F)c(=O)c(-c2noc(C(CCCCN)c4ccccc4)n2)cn3Cc2ccc(Cl)cc2)CC1 | 1b |  |  | replicon | <10 µM |
| CCOC(=O)c1c(-c2ccc[nH]c2=O)c2c3occc3c(F)cc2n1Cc1cc(C(N)=O)ccc1F |  |  |  | replicon | <0.5 µM |

A second listing of 7 rows from above:

structure,strain,changes,cells,method,result
CCOc1nc(N)nc2ccc(-c3ccc(NC(=O)[C@H](C)N)c(F)c3)nc12,,,Huh7,replicon,<0.3 µM
CN1CCN(C(=O)C2Cc3ccccc3-c3c(C4CCCCC4)c4ccc(C(=O)NC5(CNc6ccc(/C=C/C(=O)O)cc6)CCCC5)cc4n3C2)CC1,,,Huh7,replicon,0.01–1 µM
CNC(=O)c1c(-c2ccc(F)cc2)oc2cc(C(C)NC)c(OC)cc12,,,Huh7,replicon,>30 µM
CC1CCC(C(=O)N(c2cc(-c3ccc(NC(=O)c4ccc(F)cc4)nc3)sc2C(=O)O)C(C)C)CC1,1a,,,replicon,<0.5 µM
CNC(=O)c1c(-c2ccc(F)cc2)oc2cc(N(C)S(C)(=O)=O)c(OC(C)C)cc12,,,Huh7,replicon,<1 µM
O=C(Nc1ccc(-c2cc(N(CC3CC3)C(=O)C3CCC(C(F)(F)F)CC3)c(C(=O)O)s2)cc1)c1cscn1,1b,,,replicon,<0.5 µM
C=C[C@@H]1C[C@]1(NC(=O)[C@@H]1C[C@@H](Oc2cc(-c3ccccc3)nc3cc(OC)ccc23)CN1C(=O)[C@@H](NC(=O)OC(C)(C)C)C(C)(C)C)C(=O)NS(=O)(=O)c1ccccc1C(F)(F)F,1b,,Huh7,replicon,<0.5 µM